Measured values: PMC11578449 (2024)

Molecular target: Malayan pangolin (Manis javanica) DPP4 (MjDPP4) ectodomain (Manis javanica (Malayan pangolin))
Assay: SPR

MjHKU4r-CoV-1 spike protein receptor binding domain (RBD) (domain or fragment)
Kd: 170 nM
